# Screening data, single-dose tests

Source: ChEMBL document CHEMBL3988442, “University of Dundee, Small-Polar-MMV Screening Library” (2021).

Each number is a percent effect as filed. The controls that fix the scale are not given in the record; negative values are as filed. The entries come from a sample that favours strong results. Two or more numbers in one place are separate tests of the same structure; such repeats can differ widely. A dash means the value is not listed here; it may have been measured.

Mtb glucose medium: 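Phenotypic screen: M. tuberculosis growth, glucose 7H9 medium, 3 days; the read-out is not stated. Tested at 50 µM. Higher reads as more growth inhibition (inferred: compounds with an IC50 in retests scored well above the rest). About 69,000 compounds were tested under these conditions; 1.1% (about 760) showed 50% or more at least once.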
Mtb cholesterol medium: 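Growth of Mycobacterium tuberculosis over 4 days (cholesterol / DPPC medium with tyloxapol); the read-out is not stated. Concentration: 50 µM. Higher reads as more growth inhibition (inferred: compounds with an IC50 in retests scored well above the rest). Size under these conditions: about 69,000 compounds, about 370 of them at 50% or above in at least one test.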

For CN1CCN(C(=O)CC2CCN(CCc3ccccn3)CC2)CC1 the result was Mtb glucose medium: 14.97%; Mtb cholesterol medium: -4.162%.
For COc1cccc(CN2CC[C@H](c3nnc(C)o3)C2)c1 the result was Mtb glucose medium: -19.96% & -6.406%; Mtb cholesterol medium: -14.81%.
For CCc1c(C)nc(-n2nc(C3CC3)cc2NC(C)=O)[nH]c1=O the result was Mtb glucose medium: -14.94%.
For CC(C)c1nc(CC(=O)N(C)Cc2ccc3c(c2)OCO3)cs1 the result was Mtb glucose medium: 2.927%; Mtb cholesterol medium: 1.718%.
For Cc1c(CNCc2nn(-c3ccccc3)c3c2CCC3)cc(C#N)n1C the result was Mtb glucose medium: 35.28%.
For Nc1ccnc(N2CCC(c3nccn3CC3CC3)CC2)n1 the result was Mtb cholesterol medium: -13.52%.
For O=C(Cn1cnnn1)Nc1ccc(F)cc1OCC1CC1 the result was Mtb cholesterol medium: -0.5116% & -3.254%.
For O=C(O)C(F)(F)F.c1cncc(-c2ccc3c(c2)C2(CC3)CCN(c3nncs3)CC2)c1 the result was Mtb glucose medium: -0.8087%; Mtb cholesterol medium: -14.45%.
For O=C(NCc1cccnc1)NCC(O)c1cccc(C(F)(F)F)c1 (stereo not shown) the result was Mtb glucose medium: -4.499%.
For CN(CCc1ccccn1)Cc1nccn1Cc1ccccc1 the result was Mtb glucose medium: 63.66%.
For COc1ccc(Cl)cc1NCC(=O)NCCNc1ncccn1 the result was Mtb glucose medium: 0.6942% & -2.521%.
For Cc1nc(N)cc(N2CCCC(COc3cccc(F)c3)C2)n1 (stereo not shown) the result was Mtb glucose medium: 61.39%; Mtb cholesterol medium: 87.21%.
For CSCc1ccc(C(=O)NCCCNc2ccc(C(F)(F)F)cn2)cc1 the result was Mtb glucose medium: 70.86%.
For CC(C)(C)c1noc(CCC(=O)N2CCNC(=O)C2)n1 the result was Mtb glucose medium: -17.42% & 5.529%.
For Cc1cc2c(cc1Cl)C=CC1(CCN(CC(=O)NC3CCCC3)CC1)O2 the result was Mtb glucose medium: 51.26%; Mtb cholesterol medium: 35.37% & 53.95%.
For CCOCc1nnc(NCc2cccnc2)o1 the result was Mtb glucose medium: -31.86%.
For Cl.Fc1ccc(F)c(CN2CCC(c3cc4ncccc4cn3)CC2)c1 the result was Mtb glucose medium: 79.43%; Mtb cholesterol medium: 59.49%.
For CCC(C)Oc1cc(C(=O)Nc2nnc(C(C)C)[nH]2)ccn1 (stereo not shown) the result was Mtb cholesterol medium: 22.21%.
For CCCn1ccnc1CN1CCCC1c1ccccn1 (stereo not shown) the result was Mtb glucose medium: 12.94% & 111.5%.
For CCOC(=O)Cn1nnnc1-c1ccccc1 the result was Mtb glucose medium: 0.1505%.
For CN(Cc1nnc(-c2cccs2)o1)C(C(N)=O)c1cccc(F)c1 (stereo not shown) the result was Mtb glucose medium: -9.696%.
For COc1cccc(F)c1C(C)NC(=O)NCc1cnc(C)s1 (stereo not shown) the result was Mtb glucose medium: -2.569%; Mtb cholesterol medium: -8.189%.
For CC(CCc1ccco1)NC(=O)Nc1cc(C(F)(F)F)c[nH]c1=O (stereo not shown) the result was Mtb glucose medium: 78.27%; Mtb cholesterol medium: 59.33%.
For COc1ccc(CNc2nncs2)cc1F the result was Mtb glucose medium: 0.5535% & -29.14%; Mtb cholesterol medium: -15.82%.
For CCOc1cccc(C(=O)Nc2ccncc2)c1 the result was Mtb glucose medium: -9.741%.
For Cc1nc(C2CCN(C)CC2)cc(N2CCOc3ccc(Cl)cc3C2)n1 the result was Mtb glucose medium: 63.76%.
For COc1ccc(-c2cn(CCSc3ncn[nH]3)nn2)cn1 the result was Mtb glucose medium: 11.13%.
For Cc1cccc(CN(Cc2ccccn2)S(=O)(=O)N(C)C)c1 the result was Mtb glucose medium: 2.633% & -33.69%.
For CN(Cc1ccncc1)Cc1nccn1Cc1ccccc1 the result was Mtb glucose medium: 12.64%.
For Cc1ccsc1[C@@H]1CCN(C(=O)CCC(=O)N2CCCCCC2)C[C@H]1O the result was Mtb glucose medium: -15.86% & 31.13%.
For CCc1nc(C2CCCN2C(=O)CCCOc2cccc(F)c2)no1 (stereo not shown) the result was Mtb cholesterol medium: 81.2% & -9.641%.
For CN(C)S(=O)(=O)NC(=O)CC(c1ccccc1)C(F)(F)F (stereo not shown) the result was Mtb glucose medium: -27.21%; Mtb cholesterol medium: -19.05%.
For CCc1noc(CSc2n[nH]c(-c3ccccn3)n2)n1 the result was Mtb glucose medium: 28.8% & 112.7%.
For Cn1cc(C(=O)Nc2ccc3c(c2)N(C(=O)c2ccco2)CC3)nn1 the result was Mtb glucose medium: -5.617%.
For CCCc1nc(C(=O)N2CCN(C(=O)c3ccc(OC)cc3)CC2)cs1 the result was Mtb glucose medium: -4.877% & -17.22%.
For CSc1ncnc(NCc2cccs2)c1C#N the result was Mtb glucose medium: 15.88% & 3.567%.
For COCC(=O)N1CCC(C(=O)c2cc(C)cnc2N)CC1 the result was Mtb cholesterol medium: -8.118%.
For Cc1cccc(NC2CCN(C(=O)Nc3ccc(F)c(F)c3)CC2)n1 the result was Mtb glucose medium: 24.36% & 53.54%.
For CCCc1nc2c(c(C)c(C)n2Cc2cccnc2)c(N)c1CC the result was Mtb glucose medium: 17.67% & 18.11%.
For CC(C)Cc1nnc(NCc2ccsc2)o1 the result was Mtb glucose medium: 56.99%; Mtb cholesterol medium: 53.63%.
For COc1coc(CN2CCCC(CCc3ccccc3F)C2)cc1=O (stereo not shown) the result was Mtb glucose medium: 26.11% & 47.04%.
For NC(=O)c1ccc(-n2ccnc2-c2cccc(O)c2)cc1N1CCCC1 the result was Mtb cholesterol medium: 74.73%.
For CC(O)CNc1c(NCc2ccco2)c(=O)c1=O (stereo not shown) the result was Mtb glucose medium: 3.709%; Mtb cholesterol medium: -3.237%.
For Cc1ccccc1-c1cc(C(=O)NCCN2CCCS2(=O)=O)[nH]n1 the result was Mtb glucose medium: 4.46%.
For Cc1ccc2nc(CN(C)Cc3n[nH]c4c3CCCCC4)[nH]c2c1C the result was Mtb glucose medium: 54.78%.
For CCCc1ccc(C(=O)N2CCn3c(nnc3C(C)C)C2)cc1 the result was Mtb cholesterol medium: 11.98%.
For Cc1ncc(C(=O)NCCNC(=O)c2ccccc2)s1 the result was Mtb glucose medium: -11%.

Once more, the final 3:

structure	Mtb glucose medium	Mtb cholesterol medium
Cc1ccc2nc(CN(C)Cc3n[nH]c4c3CCCCC4)[nH]c2c1C	54.78	-
CCCc1ccc(C(=O)N2CCn3c(nnc3C(C)C)C2)cc1	-	11.98
Cc1ncc(C(=O)NCCNC(=O)c2ccccc2)s1	-11	-